A mixed list of measured activities; the numbers were collected in NIAID ChemDB.

Common to all: toxicity to cultured cells; cell line: HepG2 2.2.15; endpoint: CC50

CCn is the concentration with n% toxicity to the cells. An empty or dashed field is not shown. Neighbouring rows are from separate reports.

SMILES	method	value
COC(=O)[C@H](C)NP(=O)(OC[C@@H]1CC[C@H](n2cnc3c(N)ncnc32)C1)Oc1ccccc1		38 µM
C=CCSSCC=C		>100 µM
COc1cc(NC(=O)Nc2cccc(CNC(=O)O[C@H]3CCOC3)c2)ccc1-c1cnco1	XTT	5.2 µM
Cc1c(-c2cnccn2)ssc1=S		>50 µM
Nc1ncnc2c1ncn2CCOCP(=O)(O)O		37 µM
Nc1ncnc2c1ncn2CCOCP(=O)(O)O		>10 µM
COc1cc(/C=C/C(=O)CC(=O)/C=C/c2ccc(O)c(OC)c2)ccc1O		>100 µM
Nc1ccn([C@@H]2C=C(F)[C@H](CO)O2)c(=O)n1		>100 µM
O=c1c(-c2ccc(O)cc2)coc2cc(OC3O[C@H](CO)[C@@H](O)[C@H](O)[C@H]3O)ccc12		>100 µM
CCCOCCCCCCN1C[C@H](O)[C@@H](O)[C@H](O)[C@H]1CO		>2000 µM
O=C(N[C@H](CO)Cc1ccccc1)/C(NC(=O)c1ccc(F)cc1)=C(/Br)c1ccccc1	MTT	>100 µM
C[C@H](Cn1cnc2c(N)ncnc21)OCP(=O)(O)O		>100 µM
C[C@@]12C(=O)OC(=O)[C@]1(C)[C@H]1CC[C@@H]2O1		3.5 µM
COc1ccc2cc3[n+](cc2c1OC)CCc1cc2c(cc1-3)OCO2		50 µM
CCC(C)CCC[C@H](C)CCN1C[C@H](O)[C@@H](O)[C@H](O)[C@H]1CO		250 µM
O=c1c(-c2ccc(O)cc2)coc2c(O[C@@H]3O[C@H](CO)[C@@H](O)[C@H](O)[C@H]3O)c(O)ccc12		>100 µM
N#C[C@]1(CO)/C(=C\F)[C@@H](n2cnc3c(=O)[nH]c(N)nc32)CC1O	MTT	169 µM
OC[C@@H]1[C@@H](O)[C@H](O)[C@@H](O)CN1CCCCCCCCCCN1C[C@H](O)[C@@H](O)[C@H](O)[C@H]1CO		>1000 µM
O=C(OC[C@H]1O[C@@H](OC(=O)c2cc(O)c(O)c(OC(=O)c3cc(O)c(O)c(O)c3)c2)[C@H](OC(=O)c2cc(O)c(O)c(OC(=O)c3cc(O)c(O)c(O)c3)c2)[C@@H](OC(=O)c2cc(O)c(O)c(OC(=O)c3cc(O)c(O)c(O)c3)c2)[C@@H]1OC(=O)c1cc(O)c(O)c(OC(=O)c2cc(O)c(O)c(O)c2)c1)c1cc(O)c(O)c(OC(=O)c2cc(O)c(O)c(O)c2)c1		17 µM

A second listing of 2 rows from above:

SMILES | method | value
Nc1ncnc2c1ncn2CCOCP(=O)(O)O |  | 37 µM
O=C(OC[C@H]1O[C@@H](OC(=O)c2cc(O)c(O)c(OC(=O)c3cc(O)c(O)c(O)c3)c2)[C@H](OC(=O)c2cc(O)c(O)c(OC(=O)c3cc(O)c(O)c(O)c3)c2)[C@@H](OC(=O)c2cc(O)c(O)c(OC(=O)c3cc(O)c(O)c(O)c3)c2)[C@@H]1OC(=O)c1cc(O)c(O)c(OC(=O)c2cc(O)c(O)c(O)c2)c1)c1cc(O)c(O)c(OC(=O)c2cc(O)c(O)c(O)c2)c1 |  | 17 µM